{"source": "patent US20230077716A1", "about": "(published 2023)", "binders": {"B1": {"name": "1G05 Fab (Fab, V domains shown)", "VH": "QVQLQESGPGLVRPSETLSLTCTVSGDSIGGSYWNWIRQPPGKGLQWIGYIYYTGITNYNPSLKSRVTMSLDTSKNQISLKMDSVTAADTALYFCARGDYSGYDRDVQVELMDVWGKGTTVTVSS", "VL": "DIQMTQSPSSLSASVRDKVTFVCRASQTISIFLNWYQHKPGEAPKLLIYAASRLQSGVPSRFSGSGSGTDFTLTISGLQPEDFATYYCQQSYSAPWTFGQGTKVEIK"}}, "key": {"[1]": {"molecular_target": "T1, recombinant B/Phuket/3073/2013 NA ectodomain (tetramer) (UniProt P16199 79-465)", "test": "BLI; kinetic"}, "[2]": {"molecular_target": "T1, recombinant B/Phuket/3073/2013 NA …", "test": "BLI; equilibrium"}}}
{"binder": "B1", "values": [{"measurement": "Kd", "setting": "[1]", "value": 1.07, "unit": "nM"}, {"measurement": "Kd", "setting": "[2]", "value": 6.84, "unit": "nM"}]}
